Test system: rust pathogens of wheat
Settings: Table 20; standard benziothiazolinone

For `O=c1[nH]sc2ccccc12` [Benziothiazolinone], the “ATI (actual toxicity index)” value was 100.

Reference: patent US10561143B2, “Fungicidal composition having synergistic effect” (JIANGSU HUIFENG AGROCHEMICAL CO., LTD., priority 2013, dated 2020)
